{
  "sequences": {"note": "Sequences of proteins named here, by UniProt entry; tags and fusion partners are left off. Residues count along the entry.", "UniProt Q962Y6, 1-598": "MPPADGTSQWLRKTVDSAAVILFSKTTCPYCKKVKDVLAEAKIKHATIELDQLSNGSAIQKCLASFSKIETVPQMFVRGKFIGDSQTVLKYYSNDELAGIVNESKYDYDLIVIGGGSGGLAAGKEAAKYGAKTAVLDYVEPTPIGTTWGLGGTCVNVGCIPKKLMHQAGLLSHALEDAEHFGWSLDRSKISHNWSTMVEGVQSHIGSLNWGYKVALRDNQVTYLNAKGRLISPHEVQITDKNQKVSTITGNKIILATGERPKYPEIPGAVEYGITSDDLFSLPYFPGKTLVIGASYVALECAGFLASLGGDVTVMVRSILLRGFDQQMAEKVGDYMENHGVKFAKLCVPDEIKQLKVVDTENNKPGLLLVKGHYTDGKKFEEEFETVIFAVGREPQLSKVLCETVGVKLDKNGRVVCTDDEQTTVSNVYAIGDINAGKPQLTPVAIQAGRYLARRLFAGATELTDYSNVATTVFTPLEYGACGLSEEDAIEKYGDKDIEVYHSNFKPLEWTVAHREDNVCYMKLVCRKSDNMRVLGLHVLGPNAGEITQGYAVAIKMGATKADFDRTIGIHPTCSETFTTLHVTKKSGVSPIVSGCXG"},
  "source": "ChEMBL document CHEMBL4425145",
  "about": "“Discovery of New Anti-Schistosomal Hits by Integration of QSAR-Based Virtual Screening and High Content Screening” (J Med Chem, 2016)",
  "target": "Thioredoxin glutathione reductase (Schistosoma mansoni, UniProt Q962Y6)",
  "assay": "Inhibition of Schistosoma mansoni TGR",
  "data": [
    {"compound": "CCc1nc2c([nH]1)c1no[n+]([O-])c1c1no[n+]([O-])c21", "values": [
      {"measurement": "IC50", "value": 15.8, "unit": "µM"}
    ]}
  ]
}
